Measured values: paper PMC12658140

Target: H3 stem with T32HA2 (influenza A virus H3N2 A/Finland/486/2004)
Experiment: BLI

B1: AG2-G02 Fab (Fab, V domains shown)
VH: VQLVQSGAEMKKPGASVKVSCKASGYTFSAYYIHWVRQAPGQGLEWMGRINTDSGGTNFAQQFEGRVTMTRDTSISTAYMELSSLRSDDTAVYYCARGYDFWLGSYRAGGWFDPWGQGTLVTVSS
VL: [no letters for about 100 residues]GFTFGPGTKVDIK
B1 was tested, and the Kd was 0.57 nM.
